{"source": "patent US6764837", "about": "(BOARD OF TRUSTEES OF THE UNIVERSITY OF ARKANSAS, dated 2004)", "molecular_target": "constitutively active VirG protein (VirG^con) of A. tumefaciens (Agrobacterium tumefaciens) (UniProt P62722)", "assay": "cell-based or functional assay"}
{"substance": "A. tumefaciens RpoA (α subunit of RNA polymerase), untagged, expressed in E. coli MC4100 (from UniProt P0A4E3 1-336)", "values": [{"measurement": "β-galactosidase activity, virB::lacZ in E. coli MC4100(pSY215) plus pPS1.3", "value": 140, "unit": "Miller Units"}]}
